Results reported in patent US20220009967A1, “Isolation and Semi-Synthesis of Rufomycin Analogs” (THE BOARD OF TRUSTEES OF THE UNIVERSITY OF ILLINOIS, priority 2020, published 2022).

Protein sequences, listed by entry. Tags and fused reporters are not part of them. Residues count along the entry.
UniProt P9WPC9, whole entry: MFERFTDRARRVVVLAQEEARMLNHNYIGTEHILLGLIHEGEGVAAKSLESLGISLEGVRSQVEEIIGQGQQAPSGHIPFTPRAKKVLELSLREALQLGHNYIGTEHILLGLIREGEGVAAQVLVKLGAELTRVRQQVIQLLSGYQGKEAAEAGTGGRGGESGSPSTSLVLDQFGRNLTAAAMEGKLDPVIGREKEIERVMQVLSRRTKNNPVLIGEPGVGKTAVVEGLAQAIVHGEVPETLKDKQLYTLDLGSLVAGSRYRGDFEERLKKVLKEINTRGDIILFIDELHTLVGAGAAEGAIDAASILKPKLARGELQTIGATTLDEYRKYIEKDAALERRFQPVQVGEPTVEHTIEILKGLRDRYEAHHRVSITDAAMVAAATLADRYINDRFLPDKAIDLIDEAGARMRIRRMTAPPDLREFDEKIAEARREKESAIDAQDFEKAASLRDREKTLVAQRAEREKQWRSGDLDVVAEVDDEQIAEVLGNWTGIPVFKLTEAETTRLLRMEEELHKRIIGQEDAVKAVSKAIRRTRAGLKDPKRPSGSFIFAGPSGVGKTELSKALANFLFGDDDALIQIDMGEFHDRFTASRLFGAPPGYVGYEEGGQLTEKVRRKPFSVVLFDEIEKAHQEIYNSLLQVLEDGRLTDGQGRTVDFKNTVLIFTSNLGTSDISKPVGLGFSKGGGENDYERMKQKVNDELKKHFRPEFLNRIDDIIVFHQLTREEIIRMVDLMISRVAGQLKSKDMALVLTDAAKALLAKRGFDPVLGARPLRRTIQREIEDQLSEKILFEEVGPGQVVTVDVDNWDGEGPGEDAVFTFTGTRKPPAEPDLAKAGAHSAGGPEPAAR
UniProt P9WPC9, 2-144 limits assumed: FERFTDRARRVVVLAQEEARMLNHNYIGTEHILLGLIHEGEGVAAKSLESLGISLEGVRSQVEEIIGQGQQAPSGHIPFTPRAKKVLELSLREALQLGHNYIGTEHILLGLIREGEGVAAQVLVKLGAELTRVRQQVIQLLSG

Experiments:
Mycobacterial ClpC1 FL = Mycobacterial ClpC1 FL (Mycobacterium tuberculosis, UniProt P9WPC9); test: SPR binding affinity to ClpC1 full-length protein (FL); conditions: read-out: SPR KD FL, KD=kd/ka, Table 1
Mycobacterial ClpC1-NTD = Mycobacterial ClpC1-NTD (Mycobacterium tuberculosis, UniProt P9WPC9); test: SPR binding affinity to ClpC1-NTD; conditions: read-out: SPR KD NTD; ClpC1 N-terminal domain; KD=kd/ka; Table 1
M. tuberculosis = test: MIC against M. tuberculosis, microplate Alamar Blue assay (MABA); format: cell-based, Mycobacterium tuberculosis
[1] = MABA, 90% reduction in fluorescence, Table 1

SMILES	pKd (Mycobacterial ClpC1 FL)	pKd (Mycobacterial ClpC1-NTD)	MIC (M. tuberculosis; [1]) [nM]	increase in activity compared to rufomycin analogues 1 and 2 (M. tuberculosis; MIC ratio, in words)	MIC (M. tuberculosis; text summary of Table 1, unit not given)
C/C=C/C[C@@H]1NC(=O)[C@H](CC(C)C)N2C(=O)[C@H](CC(C)[C@H]2OC)N(C)C(=O)[C@H](C)NC(=O)[C@H](Cc2ccc(OC(C)=O)c([N+](=O)[O-])c2)NC(=O)[C@H](CC(C)C)N(C)C(=O)[C@H](Cc2cn(C(C)(C)[C@H](O)CCl)c3ccccc23)NC1=O (some centres unmarked)	6.92	7.11	1.4 (≈ 1.59 ng/mL)	ten-fold increase in activity	1.4
C/C=C/C[C@@H]1NC(=O)[C@H](CC(C)C)N2C(=O)[C@H](CC(C)[C@H]2OC)N(C)C(=O)[C@H](C)NC(=O)[C@H](Cc2ccc(OC(C)=O)c([N+](=O)[O-])c2)NC(=O)[C@H](CC(C)C)N(C)C(=O)[C@H](Cc2cn(C(C)(C)[C@H]3CO3)c3ccccc23)NC1=O (some centres unmarked)	7.01	7.21	5.1 (≈ 5.6 ng/mL)		

pKd: −log10 of the molar value. Converted amounts (≈) assume the structure as drawn.
